Measured values reported in paper PMC3030508, “Analysis of the PDZ binding specificities of Influenza A Virus NS1 proteins” (2011).
Like-named read-outs stand apart in the source and are kept apart here.

Key:
GST-Dlg [1] = molecular target: GST-Dlg (UniProt Q12959)
GST-Dlg [2] = molecular target: GST-Dlg (UniProt Q12959); experiment: GST pulldown; conditions: 20% input lane shown

## Avian type Influenza A virus NS1 protein (non-structural protein 1), wild type
GST-Dlg [1]
  response (% input retained): 3
GST-Dlg [2]; parent: 40
  response (% input retained): 1
GST-Dlg [2]; in vitro translated NS1, parent: 25
  response (% input retained): 1.6
